Results of unrelated studies side by side (data: NIAID ChemDB).

All rows: growth or infection tests; agent: Rhinovirus; method: plaque count; measure: inhibition

"inactive" is the filed call at that dose; no cut-off is given.

compound,cells,tested at,strain,value
CN(c1cccc(F)c1)c1nc(C(F)(F)F)nc2c1ncn2Cc1cccc(F)c1,M-HELA,10 µM,Serotype 4,38%
O=C(/C=C(\O)c1ccccc1O)/C=C/c1ccc([N+](=O)[O-])cc1,HeLa,6.25 µM,Serotype 14,41%
COc1cc(C(=O)Oc2c(-c3ccc(Cl)cc3)oc3ccccc3c2=O)ccc1OC(C)=O,HeLa,14.22 µM,Serotype 1B,inactive
CN(C)c1nc(C(F)(F)F)nc2c1ncn2Cc1ccccc1,M-HELA,8 µM,Serotype 13,22%
O=C(Oc1c(-c2ccc(Cl)cc2)oc2ccccc2c1=O)c1cc(OCc2ccccc2)c(OCc2ccccc2)c(OCc2ccccc2)c1,HeLa,1.36 µM,Serotype 1B,inactive
Cc1ccc(Cn2cnc3c(N(C)C)nc(C(F)(F)F)nc32)cc1,M-HELA,8 µM,TYPE 5,18%
Fc1cccc(Cn2cnc3c(Nc4cccc(F)c4)nc(C(F)(F)F)nc32)c1,M-HELA,2.5 µM,Serotype 6,21%
Cc1ccc(Cn2c(Oc3ccccc3)nc3c(N(C)C)nc(C(F)(F)F)nc32)cc1,M-HELA,8 µg/mL,TYPE 1B,16%
N#Cc1cc([N+](=O)[O-])ccc1Oc1ccc(Cl)c(Cl)c1,VERO,2 µg/mL,HANK,100%
COc1cc(/C=C/C(=O)Oc2c(-c3ccc(Cl)c(Cl)c3)oc3ccccc3c2=O)ccc1O,HeLa,1.56 µM,Serotype 14,23%
Cc1ccc(/C=C/c2cc(=O)c3ccccc3o2)cc1,HeLa,6.25 µM,Serotype 1B,36%
Cc1ccccc1Cn1cnc2c(N(C)C)nc(C(F)(F)F)nc21,M-HELA,8 µM,Serotype 14,31%
COc1cc(C(=O)Oc2c(-c3ccc(Cl)cc3)oc3ccccc3c2=O)ccc1O,HeLa,0.49 µM,Serotype 1B,inactive
CN(C)c1nc(C(F)(F)F)nc2c1ncn2Cc1ccc(Cl)c(N)c1,M-HELA,8 µM,Serotype 30,34%
COc1cc(C(=O)Oc2c(-c3ccc(Cl)cc3)oc3ccccc3c2=O)cc(OC)c1OC(C)=O,HeLa,1.02 µM,Serotype 1B,inactive
O=C(/C=C(\O)c1ccccc1O)/C=C/c1ccc(O)cc1,HeLa,12.5 µM,Serotype 1B,36%
CN(C)c1nc(C(F)(F)F)nc2c1ncn2Cc1ccc(S(C)(=O)=O)cc1,M-HELA,8 µM,Serotype 18,29%
COc1cc(C(=O)Oc2c(-c3ccc(Cl)c(Cl)c3)oc3ccccc3c2=O)ccc1OC(C)=O,HeLa,1.56 µM,Serotype 1B,28%

A second listing of 3 rows from above:

compound	cells	tested at	strain	value
COc1cc(C(=O)Oc2c(-c3ccc(Cl)cc3)oc3ccccc3c2=O)ccc1O	HeLa	0.49 µM	Serotype 1B	inactive
N#Cc1cc([N+](=O)[O-])ccc1Oc1ccc(Cl)c(Cl)c1	VERO	2 µg/mL	HANK	100%
CN(C)c1nc(C(F)(F)F)nc2c1ncn2Cc1ccccc1	M-HELA	8 µM	Serotype 13	22%

Inhibition is in % at the dose shown (toxicity tests: loss of growth or viability). Neighbouring rows are from separate reports.